Tests used:
[1] = tested on: HCV replicon cells; experiment: HCV replicon FRET / luciferase assay; format: cell-based; conditions: 50% reduction in FRET or luciferase activity, numeric values
Procedure: FRET Assay Preparation. The HCV FRET screening assay was performed in 96-well cell culture plates. The FRET peptide (Anaspec, Inc.) (Taliani et al., Anal. Biochem. 1996, 240, 60-67) contains a fluorescence donor, EDANS, near one end of the peptide and an acceptor, DABCYL, near the other end. The fluorescence of the peptide is quenched by […] resonance energy transfer (RET) between the donor and the acceptor, but as the NS3 protease cleaves the peptide the products are released from RET quenching and the fluorescence of the donor becomes apparent. […]
Assays. […] After reading in a Cytoflour 4000 instrument (PE Biosystems), plates were rinsed with PBS and then used for FRET assay by the addition of 30 ul of the FRET peptide assay reagent described above (FRET Assay Preparation) per well. The plate was then placed into the Cytoflour 4000 instrument which had been set to 340 excite/490 emission, automatic mode for up to 20 cycles and the plate read in a kinetic mode. Typically, the signal to noise using an endpoint analysis after the reads was at least three-fold. Alternatively, after Alamar blue reading, plates were rinsed with PBS, then used for luciferase assay using the Promega Dual-Glo Luciferase Assay System or the Promega EnduRen Live Cell Substrate assay. […]

Protein sequences, listed by entry. Tags and fused reporters are not part of them. Residues count along the entry.
UniProt Q9WMX2, 2420-2992 limits assumed: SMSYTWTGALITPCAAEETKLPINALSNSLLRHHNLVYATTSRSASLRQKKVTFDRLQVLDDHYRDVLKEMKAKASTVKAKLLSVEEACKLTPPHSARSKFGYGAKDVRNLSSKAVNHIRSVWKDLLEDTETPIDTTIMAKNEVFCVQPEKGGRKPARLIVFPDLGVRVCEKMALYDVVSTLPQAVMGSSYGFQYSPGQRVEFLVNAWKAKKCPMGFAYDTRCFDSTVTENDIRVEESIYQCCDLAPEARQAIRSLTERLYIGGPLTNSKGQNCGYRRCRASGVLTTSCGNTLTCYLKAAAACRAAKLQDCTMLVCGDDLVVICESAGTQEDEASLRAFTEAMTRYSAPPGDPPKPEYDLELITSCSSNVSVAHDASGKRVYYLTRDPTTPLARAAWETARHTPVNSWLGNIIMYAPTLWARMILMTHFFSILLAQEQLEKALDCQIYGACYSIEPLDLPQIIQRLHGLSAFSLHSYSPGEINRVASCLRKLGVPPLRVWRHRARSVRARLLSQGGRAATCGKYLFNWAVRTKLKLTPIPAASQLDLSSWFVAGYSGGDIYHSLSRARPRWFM

[2] = target: HCV NS5B RdRp (Hepatitis C virus genotype 1b, UniProt Q9WMX2); experiment: HCV NS5B RdRp enzyme assay; format: biochemical; conditions: HCV NS5B genotype 1b; standard or modified RdRp assay not given; numeric values
Procedure: HCV NS5B RdRp cloning, expression, and purification. The cDNA encoding the NS5B protein of HCV, genotype 1b, was cloned into the pET21a expression vector. The protein was expressed with an 18 amino acid C-terminal truncation to enhance the solubility. The E. coli competent cell line BL21(DE3) was used for expression of the protein. Cultures were grown at 37° C. for ˜4 hours until the cultures reached an optical density of 2.0 at 600 nm. The cultures were cooled to 20° C. and induced with 1 mM […]. Fresh ampicillin was added to a final concentration of 50 μg/ml and the cells were grown overnight at 20° C.
Cell pellets (3 L) were lysed for purification to yield 15-24 mgs of purified NS5B. The lysis buffer consisted of 20 mM Tris-HCl, pH 7.4, 500 mM NaCl, 0.5% triton X-100, 1 mM DTT, 1 mM EDTA, 20% glycerol, 0.5 mg/ml lysozyme, 10 mM MgCl2, 15 ug/ml deoxyribonuclease I, and Complete TM protease inhibitor tablets (Roche). After addition of the lysis buffer, frozen cell pellets were resuspended using a tissue homogenizer. To reduce the viscosity of the sample, aliquots of the lysate were sonicated on ice using a microtip attached to a Branson sonicator. […]
Standard HCV NS5B RdRp enzyme assay. […] Plates were read on a Packard Top Count NXT after >1 hr incubation at room temperature. […]
IC50 values for compounds were determined using seven different [I]. […]

`COc1ccc2c(c1)C1CC1(C(=O)N1CCC(n3c(=O)[nH]c4ccccc43)CC1)Cn1c-2c(C2CCCCC2)c2ccc(C(=O)NS(=O)(=O)N(C)C)cc21` (centres unmarked) was tested, and the EC50 [1] was 430 nM and the IC50 [2] was 110 nM.
